# Measurements: article PMC4482694, “Machine Learning Models and Pathway Genome Data Base for Trypanosoma cruzi Drug Discovery” (PLoS Neglected Tropical Diseases, 2015)
# Test system: T. cruzi CA-I/72
# Assay: Secondary screening (dose-response assay)
# Format: cell-based, Trypanosoma cruzi
# Conditions: dose-response curve
# Experimental: T. cruzi CA-I/72 trypomastigotes were obtained from C2C12 infected-culture supernatants after 4–7 days of infection. Cultures were maintained at 37°C with 5% CO2. […] Compounds were added at 10 mM in 50 nl per well using a Biomek FX (Beckman Coulter) for a final 10 μM concentration in 50 μl total volume, and 2,500 parasites were added in 10 μl per well. The plate was incubated for 72 hours at 37°C with 5% CO2. After the incubation, the plate was fixed with the addition of 50 μl of 8% paraformaldehyde solution, followed by two successive washing steps using PBS. Finally, a staining solution containing 0.5 μg/ml of 4',6-diamidino-2-phenylindole (DAPI) was added to each well of the plate and incubated for at least 4 hours prior to reading. Images were acquired by an IN Cell Analyzer 2000 (GE Healthcare) and analyzed by IN Cell Analyzer Developer 1.6 software. […] Numbers of host cells and intracellular amastigotes were determined based on host cell and parasite nucleus quantification, providing a measure of growth inhibition during the first 72 h of post-infection treatment compared to untreated controls. […] The host cell viability was assessed based on the total number of cells divided by the average number of cells from untreated controls (0.1% DMSO), being <0.5 considered a cytotoxic compound. This assay was performed in duplicate.
# The hit selection criteria: >50% activity at 10 μM and >0.5 host cell viability in the primary screening. To determine the potency of the hit compounds, we performed a dose-response assay. EC50 values of compounds were determined applying the same assay used in the primary screening. […] Then, 50 nl of each sample were diluted in 50 μl media (DMEM H-21) and added to the experimental plate followed by incubation at 37°C with 5% CO2 for 72 h.
SMILES,Hill slope,Hill slope (listed as Nitrofural)
"COc1ccc2cc1Oc1ccc(cc1)C[C@H]1c3cc(c(OC)cc3CCN1C)Oc1c(OC)c(OC)cc3c1[C@H](C2)N(C)CC3 [SC-0011496, Tetrandrine]",1.95,–
"O=C1OCCN1/N=C/c1ccc([N+](=O)[O-])o1 [SC-0011742, Furazolidone]",2.81,–
"NC(=O)N/N=C/c1ccc([N+](=O)[O-])o1 [SC-0011754, Nitrofural]",1,1.00
"COc1ccc2nc3cc(Cl)ccc3c(Nc3cc(CN4CCCC4)c(O)c(CN4CCCC4)c3)c2n1 [SC-0011799, Pyronaridine]",2.03,–
